Patent US20190298669A1 (priority 2018, published 2019)
Where “and” joins values, the source holds several entries; their conditions need not be identical. Equal entries are not always repeated.

Columns and labels:
[1] = system: A/Mississippi/3/2001 wild type (H1N1); format: cell-based
[2] = system: A/Regensburg/D6/2009 (RB1, H1N1pdm09); details: mouse, in vivo

`CCOC(=O)C1=C[C@@H](OC(CC)CC)[C@H](NC(C)=O)[C@@H](N)C1` [oseltamivir] was tested, and the “virus found after treatment” value [1] was “No virus was detectable” and the mice died [2] was 2/5 and 5/5.
